According to article PMC10609173, “Antiplasmodial and Antileishmanial Activities of a New Limonoid and Other Constituents from the Stem Bark of Khaya senegalensis” (Molecules, 2023):

Experiments:
[1] = system: chloroquine-sensitive 3D7 strain of Plasmodium falciparum (Pf3D7); experiment: Antiplasmodial SYBR Green I fluorescence assay, Pf3D7 strain; format: cell-based; details: SI = CC50 (RAW)/IC50 (Pf3D7)
Experimental: (§1) The parasite strains used in this study are continuously cultured at the Antimicrobial and Biocontrol Agents Unit of the University of Yaoundé I, and were graciously provided by BEI Resources (https://www.beiresources.org (accessed on 16 February 2019)). […]
(§2) The antiplasmodial efficacy of the samples was evaluated using the SYBR Green I-based fluorescence assay, as previously reported by Smilkstein et al., on a sorbitol-synchronized ring stage culture of Plasmodium falciparum (PfDd2 and Pf3D7 strains). The test relies on the development of intense fluorescence following SYBR green binding to the exposed DNA found in wells containing healthy cells. […] Fluorescence measurements were taken using an Infinite M200 microplate reader (Tecan, MT, USA) at emission and excitation wavelengths of 538 and 485 nm, respectively.
(§3) The resulting fluorescence readings were used to calculate the growth inhibition percentages relative to the negative control for each sample and for each of the tested doses. […] The resistance index (RI) for antiplasmodial tests was calculated as the ratio between the samples’ IC50 values for the chloroquine-sensitive strain 3D7 and the multiresistant strain Dd2 [69]. […] Based on each inhibitor’s antiparasitic efficacy (IC50) and cell toxicity (CC50), selectivity indices (SI) were calculated [SI = CC50 (RAW)/IC50 (Parasites)]. […]

[2] = system: multidrug-resistant Dd2 strain of Plasmodium falciparum (PfDd2); experiment: Antiplasmodial SYBR Green I fluorescence assay, PfDd2 strain; format: cell-based; details: SI = CC50 (RAW)/IC50 (PfDd2)
Experimental: as §1, §2, §3

| SMILES | SI_Pf3D7 [1] | SI_PfDd2 [2] |
| --- | --- | --- |
| CC1(C)CC[C@]2(C(=O)O)CC[C@]3(C)C(=CCC4[C@@]5(C)C[C@@H](O)[C@H](O)C(CO)(CO)C5CC[C@]43C)C2[C@@H]1O (stereo partly drawn) [Bellericagenin B (2), bellericagenin B] | >3.81 | >11.75 |
| COC(=O)[C@H](O)[C@@H]1[C@@]2(C)[C@H]3CC[C@@]4(C)[C@H](c5ccoc5)OC(=O)C[C@@]45O[C@H]4C(=O)[C@@]1(C)C[C@]2(OC(C)=O)[C@@H]4[C@@]35O [Khayanolide E (6), khayanolide E] | 1.43 | – |
